{"source": "patent US6605308B2", "about": "“Pathogen management system” (Tomoco2 Equipment Company, priority 2001, dated 2003)", "key": {"E-Coli [1]": {"tested_on": "E-Coli", "assay": "E-Coli testing at chiller system, Natchitoches, La."}, "E-Coli [2]": {"tested_on": "E-Coli", "assay": "E-Coli testing at immersion chiller, plant test at Dallas, Tex.", "conditions": "baseline"}}}
{"substance": "chlorine", "values": [{"measurement": "samples over 10 cfu/ml", "setting": "E-Coli [1]; June baseline, 238 samples", "result": 66, "unit": "%"}, {"measurement": "samples over 100 cfu/ml", "setting": "E-Coli [1]; June baseline, 238 samples", "result": 13, "unit": "%"}, {"measurement": "samples over 10 cfu/ml", "setting": "E-Coli [1]; May 2001 baseline, 258 samples", "result": 55, "unit": "%"}, {"measurement": "samples over 100 cfu/ml", "setting": "E-Coli [1]; May 2001 baseline, 258 samples", "result": 7, "unit": "%"}, {"measurement": "E-Coli detection rate", "setting": "E-Coli [2]; February", "result": 45, "unit": "%"}, {"measurement": "samples with E-Coli detected", "setting": "E-Coli [2]; February, of 240 samples", "result": 110, "unit": "samples"}, {"measurement": "E-Coli detection rate", "setting": "E-Coli [2]; January", "result": 50, "unit": "%"}, {"measurement": "samples with E-Coli detected", "setting": "E-Coli [2]; January, of 264 samples", "result": 133, "unit": "samples"}]}
